PubChem BioAssay AID624099 – ICCB-Longwood – 2012
Here is a random part of about 21,000 deposited reagents. Of all reagents, 497 (2.4%) are marked active. 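Higher z means weaker E2 silencing; only reporter increases were scored, and knock-downs that hurt cell survival may mask genuine repressor factors.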 Entries without a mark were called inactive. Reagent sequences are not shown.

Assay: 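Human genes that papillomavirus E2 requires to repress the HPV18 LCR promoter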 (primary screen)
Cells: human C33A cervical carcinoma cells (HPV-negative) stably expressing BPV1 E2 and an HPV18 LCR luciferase reporter
Reagent: siRNA pool against human genes, 40 nM
Timing: 72 h
Detection: 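HPV18 LCR reporter light per well, converted to plate-wise z-scores that exclude control wells, and averaged over triplicate plates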
Reading the numbers: mean z-score and z-score: higher = stronger reporter signal, weaker E2 silencing
Rule for the call: 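Hit if mean z-score reaches 2 and two or more of three replicate z-scores also reach 2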

{"gene symbol": "SOHLH2", "PubChem SID": "SID134324462", "mean z-score": -0.31, "z-score, replicate A": -0.84, "z-score, replicate B": -0.46, "z-score, replicate C": 0.37}
{"gene symbol": "FGFR3 (fibroblast growth factor receptor 3)", "PubChem SID": "SID56478513", "mean z-score": 0.63, "z-score, replicate A": 0.91, "z-score, replicate B": 0.26, "z-score, replicate C": 0.71}
{"gene symbol": "RRP15 (ribosomal RNA processing 15 homolog)", "PubChem SID": "SID134321563", "mean z-score": -0.36, "z-score, replicate A": -0.23, "z-score, replicate B": -0.24, "z-score, replicate C": -0.61}
{"gene symbol": "TLCD4 (TLC domain containing 4)", "PubChem SID": "SID134320692", "mean z-score": 0.82, "z-score, replicate A": 1.92, "z-score, replicate B": 0.31, "z-score, replicate C": 0.22}
{"gene symbol": "WNT9A (Wnt family member 9A)", "PubChem SID": "SID134313267", "mean z-score": -0.32, "z-score, replicate A": -0.21, "z-score, replicate B": -0.56, "z-score, replicate C": -0.19}
{"gene symbol": "PLXNC1 (plexin C1)", "PubChem SID": "SID134312722", "mean z-score": -0.38, "z-score, replicate A": -0.29, "z-score, replicate B": -0.33, "z-score, replicate C": -0.53}
{"gene symbol": "PLK2 (polo like kinase 2)", "PubChem SID": "SID57288950", "mean z-score": -0.89, "z-score, replicate A": -0.29, "z-score, replicate B": -1.22, "z-score, replicate C": -1.17}
{"gene symbol": "GNA15 (G protein subunit alpha 15)", "PubChem SID": "SID134314085", "mean z-score": -1.18, "z-score, replicate A": -0.79, "z-score, replicate B": -1.35, "z-score, replicate C": -1.42}
{"gene symbol": "ADPRHL1 (ADP-ribosylhydrolase like 1)", "PubChem SID": "SID134313393", "mean z-score": -2.03, "z-score, replicate A": -2.13, "z-score, replicate B": -1.93, "z-score, replicate C": -2.04}
{"gene symbol": "TACR3 (tachykinin receptor 3)", "PubChem SID": "SID134311165", "mean z-score": -0.97, "z-score, replicate A": -1.03, "z-score, replicate B": -0.91, "z-score, replicate C": -0.96}
{"gene symbol": "ALKBH3 (alkB homolog 3, alpha-ketoglutarate dependent dioxygenase)", "PubChem SID": "SID134310366", "mean z-score": 0.69, "z-score, replicate A": 0.86, "z-score, replicate B": 0.69, "z-score, replicate C": 0.53}
{"gene symbol": "NOLC1 (nucleolar and coiled-body phosphoprotein 1)", "PubChem SID": "SID134323606", "mean z-score": 0.86, "z-score, replicate A": 0.77, "z-score, replicate B": 1.16, "z-score, replicate C": 0.64}
{"gene symbol": "ZNF609 (zinc finger protein 609)", "PubChem SID": "SID134325342", "mean z-score": 0.01, "z-score, replicate A": -0.27, "z-score, replicate B": -0.16, "z-score, replicate C": 0.45}
{"gene symbol": "CHIT1 (chitinase 1)", "PubChem SID": "SID134315761", "mean z-score": -0.89, "z-score, replicate A": -0.56, "z-score, replicate B": -1.17, "z-score, replicate C": -0.94}
{"gene symbol": "POGK (pogo transposable element derived with KRAB domain)", "PubChem SID": "SID134321386", "mean z-score": -0.09, "z-score, replicate A": -0.13, "z-score, replicate B": -0.14, "z-score, replicate C": -0.01}
{"gene symbol": "LOC400756 (retired record)", "PubChem SID": "SID134326989", "mean z-score": -0.17, "z-score, replicate A": -0.1, "z-score, replicate B": -0.11, "z-score, replicate C": -0.29}
{"gene symbol": "WASHC2C (WASH complex subunit 2C)", "PubChem SID": "SID134328174", "mean z-score": -1.99, "z-score, replicate A": -1.78, "z-score, replicate B": -2.32, "z-score, replicate C": -1.86}
{"gene symbol": "SOWAHA (sosondowah ankyrin repeat domain family member A)", "PubChem SID": "SID134321844", "mean z-score": 0.41, "z-score, replicate A": 0.45, "z-score, replicate B": 0.59, "z-score, replicate C": 0.18}
{"gene symbol": "CCDC162P (coiled-coil domain containing 162, pseudogene)", "PubChem SID": "SID134321980", "mean z-score": 1.32, "z-score, replicate A": 1.45, "z-score, replicate B": 1.15, "z-score, replicate C": 1.35}
{"gene symbol": "CCDC162P (coiled-coil domain containing 162, pseudogene)", "PubChem SID": "SID134327616", "mean z-score": "2.51 (active)", "z-score, replicate A": 2.32, "z-score, replicate B": 2.25, "z-score, replicate C": 2.95}
{"gene symbol": "CCDC162P (coiled-coil domain containing 162, pseudogene)", "PubChem SID": "SID134327617", "mean z-score": -0.57, "z-score, replicate A": -0.6, "z-score, replicate B": 0.04, "z-score, replicate C": -1.14}
{"gene symbol": "CCDC162P (coiled-coil domain containing 162, pseudogene)", "PubChem SID": "SID134327618", "mean z-score": -0.55, "z-score, replicate A": -1.03, "z-score, replicate B": -0.17, "z-score, replicate C": -0.44}

A stretch from the list above:
{"gene symbol": "ADPRHL1 (ADP-ribosylhydrolase like 1)", "PubChem SID": "SID134313393", "mean z-score": -2.03, "z-score, replicate A": -2.13, "z-score, replicate B": -1.93, "z-score, replicate C": -2.04}
{"gene symbol": "TACR3 (tachykinin receptor 3)", "PubChem SID": "SID134311165", "mean z-score": -0.97, "z-score, replicate A": -1.03, "z-score, replicate B": -0.91, "z-score, replicate C": -0.96}
